Results of unrelated studies side by side (data: NIAID ChemDB).

Shared fields: tests in culture; organism: Hepatitis B virus

a–b is a range or a potency band.

compound	strain	endpoint	method	cell line	value
C=C1CCC2[C@](C)(COC(=O)c3ccccc3C(=O)O)[C@H](OC(=O)c3ccccc3C(=O)O)CC[C@@]2(C)[C@@H]1C/C=C1\C=COC1=O		EC50	ELISA	HepG2.2.15	>9.4 µM
O=c1[nH]c(=O)n([C@H]2C[C@H](Cl)[C@@H](CO)O2)cc1F		EC50			5 µg/mL
OC[C@@H]1O[C@@H](n2c(Br)nc3ccccc32)[C@H](O)[C@@H]1O		EC50			8.8–16 µM
Cc1cn([C@@H]2C[C@@H](O)[C@H](CO)O2)c(=O)[nH]c1=O	M204V	EC50			0.85 µM
CC[C@H]1OC(O[C@@H]2[C@@H]3[C@](C)(CC[C@H]2C(C)C)[C@H](O)CC[C@]3(C)O)[C@H](O)[C@@H](O)[C@@H]1O		EC50	ELISA / antigen	HepG2.2.15	15.02 µM
Nc1ccn([C@@H]2C[C@@H](O)[C@H](CO)O2)c(=O)n1		EC50		2.2.15	0.24 µM
NC(=O)c1cn([C@@H]2C[C@H](CO)C[C@H]2O)nn1		EC90		AD38	>10 µM
Nc1nc2c(ncn2[C@@H]2C=C[C@H](CO)CC2)c(=O)[nH]1		EC50		HEPAD79	3 µg/mL
Nc1nc(N)c2ncn([C@H]3CO[C@@H](CO)O3)c2n1	WILD TYPE	EC50			79 µM
Nc1ccn([C@H]2CC[C@@H](CO)O2)c(=O)n1		EC50		HepG2 2.2.15	100 µM
Nc1ncnc2c1ncn2CCOCP(=O)(O)O		EC50	hybridisation	HepG2 2.2.15	1.2 µM
Nc1ncnc2c1ncn2CCOCP(=O)(O)O	M550V	EC50			2.8 µM
Nc1ncnc2c1ncn2CCOCP(=O)(O)O		EC50	ELISA	HepG2	4.23 µM
CC(C)(C)CCCCCCCN1C[C@H](O)[C@@H](O)[C@H](O)[C@H]1CO		EC50		HepG2 2.2.15	30 µM
Nc1nc(=O)c2ncn([C@H]3O[C@@H](CO)[C@H](O)[C@@H]3O)c2c(=O)[nH]1		EC50		2.2.15	0.17 µM
Cc1cn([C@H]2C[C@H](N=[N+]=[N-])[C@@H](CO)O2)c(=O)[nH]c1=O		EC90		AD38	>10 µM
Nc1nc2c(ncn2C=C2CC2CO)c(=O)[nH]1		EC50		HepAD38	>100 µg/mL
Nc1ncnc2c1ncn2CCOCP(=O)(O)O		EC50		HepG2	0.34 µM
Nc1ccn([C@H]2CC[C@@H](CO)O2)c(=O)n1		EC50		2.2.15	2.8 µM
CCCCCCCCCN1C[C@H](O)[C@@H](O)[C@H](O)[C@H]1CO		EC50		HepG2 2.2.15	1–10 µM
COc1cc2ccc(=O)oc2cc1O		EC50	PCR	HepG2.2.15	682 µM
CC(C)CO[C@H]1O[C@@H]2OC3(C)CC[C@H]4[C@H](C)CCC([C@H]1C)[C@@]24OO3		EC50	PCR		<0.1 µM
O=C(O)c1ccc(O)cc1		EC50	PCR	HepG2.2.15	275 µM
Nc1ncnc2c1ncn2CCOCP(=O)(O)O		MIC			0.1 µg/mL
CCCCCCC(=O)CCCCCC/C=C/CC(O)C(O)C(N)(CO)C(=O)O		EC50			5 µM
Nc1ncnc2c1ncn2CCOCP(=O)(O)O	M204I	EC50			1.71 µM
[N-]=[N+]=N[C@H]1C[C@H](n2cc(Cl)c(=O)[nH]c2=O)O[C@@H]1CO		EC90		HepG2.2.15	>100 µM
OC[C@H]1NC[C@H](O)[C@@H](O)[C@@H]1O		EC50		HepG2 2.2.15	100–500 µM
NC(=O)c1cn([C@@H]2C[C@H](CCP(=O)(O)O)C[C@H]2O)nn1		EC90		AD38	>10 µM
Nc1ncnc2c1ncn2C[C@@H](CO)OCP(=O)(O)O		EC50		HepG2 2.2.15	0.06 µM
C[C@H](Cn1cnc2c(N)ncnc21)OCP(=O)(O)O		EC90	hybridisation	HepG2 2.2.15	10 µM
CCCCC(=O)SCCOP(=O)(OCCOCn1cnc2c(=O)[nH]c(N)cc21)OCCSC(=O)CCCC		EC50			0.2 µM
C[C@H](Cn1cnc2c(N)ncnc21)OCP(=O)(O)O		EC50		HEPAD79	0.05 µg/mL
NC(=O)c1cn([C@H]2CC[C@@H](CO)C2)c2ncnc(N)c12		EC50			0.7 µM
Nc1nc(=O)n([C@@H]2CC[C@H](CO)O2)cc1F		EC50		2.2.15	0.01 µM
Nc1nc(N)c2ncn(CCOCP(=O)(O)O)c2n1		MIC			0.02 µg/mL
[N-]=[N+]=N[C@H]1C[C@H](n2ccc(N)nc2=O)O[C@@H]1CO		EC90		HepG2.2.15	>100 µM
Nc1nc(=O)n([C@H]2CC[C@H](CO)O2)cc1F		EC50		2.2.15	0.5 µM
Cc1cn([C@@H]2C[C@@H](N)[C@H](CO)O2)c(=O)[nH]c1=O		EC50		2.2.15	>10 µM
Nc1nc(=O)n([C@H]2CC[C@@H](CO)O2)cc1F		EC90		HepG2.2.15	57 µM
Nc1ncnc2c1ncn2CCOCP(=O)(O)O		EC50		HEPAD79	0.14 µg/mL
Nc1ncnc2c1ncn2CCOCP(=O)(O)O		EC50	PCR	HepG2	169 µM
COc1ccc([C@H]2OC[C@H]3[C@@H]2CO[C@@H]3c2cc(OC)c(O)c(OC)c2)cc1O		EC50	ELISA / antigen	HepG2.2.15	56.11 µM
OC[C@@H]1[C@@H](O)[C@H](O)[C@@H](O)CN1CCCCCCCCCCN1C[C@H](O)[C@@H](O)[C@H](O)[C@H]1CO		EC50		HepG2 2.2.15	>100 µM
Nc1ccn([C@@H]2CS[C@H](CO)O2)c(=O)n1		EC50		2.2.15	0.05 µM
Nc1ccn([C@@H]2CS[C@H](CO)O2)c(=O)n1		EC90		AD38	0.24 µM
Cc1cn([C@@H]2C[C@@H](F)[C@H](CO)O2)c(=O)[nH]c1=O		EC50		2.2.15	>10 µM
Nc1nc(=O)n([C@@H]2CS[C@H](CO)O2)cc1F		EC50		Hep2.2.15	0.038 µM
CCCCN1C[C@H](O)[C@@H](O)[C@H](O)[C@H]1CO		EC50		HepG2 2.2.15	100–500 µM

A second listing of 6 rows from above:

compound | strain | endpoint | method | cell line | value
NC(=O)c1cn([C@H]2CC[C@@H](CO)C2)c2ncnc(N)c12 |  | EC50 |  |  | 0.7 µM
Cc1cn([C@@H]2C[C@@H](N)[C@H](CO)O2)c(=O)[nH]c1=O |  | EC50 |  | 2.2.15 | >10 µM
O=c1[nH]c(=O)n([C@H]2C[C@H](Cl)[C@@H](CO)O2)cc1F |  | EC50 |  |  | 5 µg/mL
C=C1CCC2[C@](C)(COC(=O)c3ccccc3C(=O)O)[C@H](OC(=O)c3ccccc3C(=O)O)CC[C@@]2(C)[C@@H]1C/C=C1\C=COC1=O |  | EC50 | ELISA | HepG2.2.15 | >9.4 µM
Nc1ccn([C@H]2CC[C@@H](CO)O2)c(=O)n1 |  | EC50 |  | 2.2.15 | 2.8 µM
Cc1cn([C@@H]2C[C@@H](F)[C@H](CO)O2)c(=O)[nH]c1=O |  | EC50 |  | 2.2.15 | >10 µM

An empty or dashed field is not shown. Rows are shuffled and stem from different studies. ECn is the concentration giving n% inhibition of infection, replication or growth.